Data: ChEMBL document CHEMBL5120941 (ACS Med Chem Lett, 2022)

Assays:
Staphylococcus aureus [1] = test: Antibacterial activity against Staphylococcus aureus ATCC 29213 infected ICR mouse thigh infection model assessed as reduction in bacterial colony forming units administered at 10 mg/kg, po at 2 hrs post-infection and measured at 24 hrs post-infection; conditions: time 22.0 hrs
Staphylococcus aureus [2] = test: Antibacterial activity against Staphylococcus aureus ATCC 29213 infected ICR mouse thigh infection model assessed as reduction in bacterial colony forming units administered iv at 2 hrs post-infection and measured at 24 hrs post-infection; conditions: time 22.0 hrs

`CC(=O)OP(=O)(O)N(C[C@H]1CN(c2cc(F)c(N3C=CC(=O)CC3)c(F)c2F)C(=O)O1)c1ccon1` was tested, and the Activity (Staphylococcus aureus [1]) was “Active” and the Activity (Staphylococcus aureus [2]) was “Dde”.

Active and inactive are the calls of the source. The rule behind the calls is not given here.
